Experimental data reported in patent US6482982B1, “Halogenated antituberculosis agents” (University of Sciences of Philadelphia, priority 2001, dated 2002).

System: M. tuberculosis H37Rv
Test: Minimum bactericidal concentration (MBC) against H37Rv
Format: cell-based, Mycobacterium tuberculosis

| SMILES | H37Rv MBC/MIC |
| --- | --- |
| Nc1cc(O)c(C(=O)O)cc1F [Compound 12, 4-Amino-5-fluorosalicylic Acid] | >64 |
| CC(=O)Nc1ccc(/C=N/NC(N)=S)cc1F [Compound 16, 4-Acetamido-3-fluorobenzaldehyde thiosemicarbazone] | >62.5 |
